# Data taken from US8076375B2 (priority 2005, dated 2011).
# Columns and labels:
# [1] = target: vaccinia virus B1 kinase (GST-B1) (Vaccinia virus, UniProt P20505); experiment: Scintillation proximity assay / in vitro protein kinase assay with GST-B1 and casein; assay type: biochemical
# [2] = target: variola F10 kinase (GST-F10) (Variola virus, UniProt P33801, R299C); settings: 10 μM inhibitor
structure (smiles),measurement,setting,value
Cc1nn(-c2ccc(S(=O)(=O)O)cc2)c(O)c1N=Nc1ccc(-c2ccc(N=Nc3ccc4c(S(=O)(=O)O)cc(S(=O)(=O)O)c(N)c4c3O)c(O)c2)cc1O,IC50,[1],2500 nM
same,"Percent activity remaining at 10 μM, B1",[1]; 10 μM inhibitor,6%
same,"Percent activity remaining at 10 μM, F10",[2],4%
